pIC50: −log10 of the molar value.
Experiments:
[1] = molecular target: NA of A/ck/VN/NCVD-295/2009 (I223T), clade 2.3.4 (Influenza A virus, UniProt S4U1V6, I203T)
[2] = molecular target: NA of A/ck/VN/NCVD-283/2009 (I223T), clade 2.3.4 (Influenza A virus, UniProt S4U1V6, I203T)
[3] = molecular target: NA of A/dk/VN/NCVD-712/2011 (V424I), clade 2.3.2.1 (Influenza A virus, UniProt U3N5P7, V404I)
[4] = molecular target: NA of A/dk/VN/NCVD-714/2011 (V424I), clade 2.3.2.1 (Influenza A virus, UniProt U3N5P7, V404I)
[5] = molecular target: NA of A/ck/VN/NCVD-296/2009 (I223T), clade 2.3.4 (Influenza A virus, UniProt S4U1V6, I203T)

Row | Molecule | pIC50 [1] | pIC50 [2] | pIC50 [3] | pIC50 [4] | pIC50 [5]
1 | CC(=O)N[C@H]1[C@H]([C@H](O)[C@H](O)CO)OC(C(=O)O)=C[C@@H]1N=C(N)N | 9.03 | 9.11 |  |  | 
2 | peramivir | 9.30 | 9.31 | 9.59 | 9.51 | 9.28

— paper PMC3840871
